In article PMC9687286, “Hydrophobic Rose Bengal Derivatives Exhibit Submicromolar-to-Subnanomolar Activity against Enveloped Viruses” (Biomolecules, 2022):
Counter-ions that a name gives are not always drawn.

Legend:
Type in all cases: cell-based
Conditions in all cases: ratio CC50 / EC50
HIV-1 strain NL4-3 = tested on: HIV-1 strain NL4-3
SARS-CoV-2 strain PIK35 = tested on: SARS-CoV-2 strain PIK35
CHIKV strain Nic = tested on: CHIKV strain Nic

Structure (SMILES)	SI, HIV (HIV-1 strain NL4-3)	SI, SARS-CoV-2 (SARS-CoV-2 strain PIK35)	SI, CHIKV (CHIKV strain Nic)
CCCCCCCCOC(=O)c1c(Cl)c(Cl)c(Cl)c(Cl)c1-c1c2cc(I)c(=O)c(I)c-2oc2c(I)c(O)c(I)cc12 [2c, Rose Bengal N-Octyl Ester, Monosodium Salt]	4.8	10	
O=C(O)c1c(Cl)c(Cl)c(Cl)c(Cl)c1-c1c2cc(I)c(=O)c(I)c-2oc2c(I)c(O)c(I)cc12 [compound 1, Rose Bengal, disodium salt, reference compound]	>3	91	391
CCCCCCCCCCOC(=O)c1c(Cl)c(Cl)c(Cl)c(Cl)c1-c1c2cc(I)c(=O)c(I)c-2oc2c(I)c(O)c(I)cc12 [2d, Rose Bengal N-Decyl Ester, Monosodium Salt]	4.8	9	28,571
CCCCOC(=O)c1c(Cl)c(Cl)c(Cl)c(Cl)c1-c1c2cc(I)c(=O)c(I)c-2oc2c(I)c(O)c(I)cc12 [2a, Rose Bengal N-Butyl Ester, Monosodium Salt]	2.4	169	1860
Cc1cn([C@H]2C[C@H](N=[N+]=[N-])[C@@H](CO)O2)c(=O)[nH]c1=O [AZT, azidothymidine, reference compound]	>455		
CCCCCCCCCCCCOC(=O)c1c(Cl)c(Cl)c(Cl)c(Cl)c1-c1c2cc(I)c(=O)c(I)c-2oc2c(I)c(O)c(I)cc12 [2e, Rose Bengal N-Dodecyl Ester, Monosodium Salt]		>2	>2632
O=c1nc(NO)ccn1[C@@H]1O[C@H](CO)[C@@H](O)[C@H]1O [NHC, N^4-hydroxycytidine, reference compound]		>21	>4
CCCCCCOC(=O)c1c(Cl)c(Cl)c(Cl)c(Cl)c1-c1c2cc(I)c(=O)c(I)c-2oc2c(I)c(O)c(I)cc12 [2b, Rose Bengal N-Hexyl Ester, Monosodium Salt]	3.4	146	90,909
